The target in assay [1] is NeoCoV RBD–hFc (domain B fused to human IgG Fc domain) (NeoCoV (bat coronavirus, found in …)).
In assay [2] the target is PDF-2180 RBD–hFc (domain B fused to human IgG Fc domain) (PDF-2180 (bat coronavirus, infects …)).

The source of these data is paper PMC9734910 (2022).

B1: soluble Bat37ACE2 ectodomain (Pipistrellus pipistrellus ACE2) (domain or fragment)
chain: TTEEEARDFLDKFNSEAENLSHESALASWDYNTNITDENAQKMNEADSKWSDFYKEQSKRAQAFPLQEIQNLTIKLQLQILQQNGSSVLTAEKSKRLSTILTTMSTIYSTGKVCNPNNPQQCFTLSGLEDIMEKSKDYHQRLWVWEGWRSEVGKQLRPLYEEYVVLKNEMARGNNYEDYGDYWRGDYETEGEDGYNYSRNQLMEDVDRIFLEIKPLYEQLHAYVRAKLMNAYPSRISPTGCLPAHLLGDMWGRFWTNLYNLTVPFEQKQNIDVTETMKKQSWDAEKIFKEAEKFYLSVGLYSMTQGFWNNSMLTEPSDGRQVVCHPTAWDLGEDDFRIKMCTKVTMDDFLTAHHEMGHIQYDMAYAKQPYLLRNGANEGFHEAVGEVMSLSVATPKHLKGMGLLPSDFSEDNETEINFLLKQALNIVGTLPFTYMLEKWRWMVFEGKIPKEQWMEKWWEMKREIVGVVEPLPHDETYCDPASLFHVANDYSFIRYFTRTILEFQFQEALCKIAKHEGPLHKCDISNSTEAGKKLKDMLELGKSKPWTYALNQIARTKEMDAKPLLNYFEPLFSWLKKQNGNSVGWSADWSPYSEQSLKVRISLISALGEKAYEWNDNEMYLFRSSVAYAMRVYFSKMNKTIPFTAEDVRVSDEKKRVSFKFFVTSPTNISDIIPRSEVEDAIRMSRSRINDA
B1: the koff in assay [1] was 8.72e-05 s⁻¹; in assay [2], 0.000141 s⁻¹.

Usually koff stands for the rate constant with which the complex falls apart. Low readings indicate a long-lived complex, high ones a short-lived complex.
